Laboratory results reported in PMC10857709, “Autophagy and cell wall integrity pathways coordinately regulate the development and pathogenicity through MoAtg4 phosphorylation in Magnaporthe oryzae” (2024).
pKd: −log10 of the molar value.

Target: GST-MoAtg8 (Magnaporthe oryzae)
Experiment: MST

Substance | pKd
His-MoAtg4 (enzyme) | 6.82
His-MoAtg4^C206S (enzyme) | 6.72
